Anti-infective test results gathered from many reports (values: NIAID ChemDB through PubChem).

Shared fields: target-level tests; agent: HIV-1; target: Reverse transcriptase

An empty or dashed field is not shown.

smiles,method,measure,mutations,strain or isolate,result
CCN1c2ncc(CCOc3ccc(CCC(=O)O)c4ccccc34)cc2C(=O)Nc2c(C)cc(Cl)nc21,nucleotide incorporation / radiometric,IC50,RT-Y188L,-,>1 µM
CCN1c2ncc(CCOc3ccc(C(=O)NS(=O)(=O)c4ccccc4)cc3C)cc2C(=O)N(C)c2cccnc21,nucleotide incorporation / radiometric,IC50,RT-K103N Y181C,IIIB,>0.1 µM
CC(C)(C)c1ccc(-n2nnnc2SCC(=O)Nc2ccc(C(=O)NC3CCN(Cc4ccccc4)CC3)cc2Cl)c(Cl)c1,PicoGreen / fluorescence,IC50,RT-K103 Y181C,-,<1 µM
CCN1c2ncc(CCOc3ccc(-c4ccc[n+]([O-])c4)cc3C)cc2C(=O)N(C)c2cccnc21,nucleotide incorporation / radiometric,IC50,-,IIIB,<0.05 µM
CS(=O)(=O)NC(=O)c1ccc(NC(=O)CSc2nnnn2-c2ccc(C3CC3)cc2Cl)c(Cl)c1,PicoGreen / fluorescence,IC50,RT-K103 Y181C,-,<1 µM
CCN1c2ncc(CCOc3ccc(-c4cc[n+]([O-])cc4)cc3)cc2C(=O)N(C)c2cccnc21,nucleotide incorporation / radiometric,IC50,-,IIIB,<0.05 µM
Cc1nnc2c3ccccc3c(N3CCc4cccnc4C3)nn12,RT activity / fluorescence,IC50,-,IIIB,2.46 µM
CN(CCc1cc[n+]([O-])cc1)C(=O)COc1ccc(NC(=O)CSc2nnnn2-c2ccc(C3CC3)cc2Cl)c(Cl)c1,PicoGreen / fluorescence,IC50,-,WT,<1 µM
CCN1c2ncccc2NC(=O)c2cc(CCOc3ccc(-c4cc(OC)c(O)c(C(=O)O)c4)cc3C)cnc21,nucleotide incorporation / radiometric,IC50,RT-K103N Y181C,IIIB,<0.05 µM
CCN1c2ncc(CCOc3ccc(C(=O)O)c4ccccc34)cc2C(=O)Nc2c(C)ccnc21,nucleotide incorporation / radiometric,IC50,-,WT,<0.1 µM
CC(C)(C#Cc1ccc(NC(=O)CSc2nnnn2-c2ccc(C(C)(C)C)cc2Cl)c(Cl)c1)C(=O)NC1CC1,PicoGreen / fluorescence,IC50,-,WT,<1 µM
CCN1c2ncc(CCOc3ccc(-c4ccc(CC(=O)O)cc4Cl)cc3C)cc2C(=O)N(C)c2cccnc21,nucleotide incorporation / radiometric,IC50,-,IIIB,<0.05 µM
Nc1ccc2c(c1)CN(c1nn3c(C4CC4)nnc3c3ccccc13)CC2,RT activity / fluorescence,IC50,-,KER2008,0.25 µM
CCN1c2ncc(CCOc3ccc(CCC(=O)O)c4c3CCCC4)cc2C(=O)N(C)c2ccc(Cl)nc21,nucleotide incorporation / radiometric,IC50,RT-V106A,-,>1 µM
COC(C(=O)Nc1ccc(NC(=O)CSc2nnnn2-c2ccc(C(C)(C)C)cc2Cl)c(Cl)c1)c1ccccc1,PicoGreen / fluorescence,IC50,RT-K103 Y181C,-,<1 µM
CCN1c2ncc(CCOc3ccc(-c4ccc(N)c(C(=O)O)c4)cc3C)cc2C(=O)N(C)c2cccnc21,nucleotide incorporation / radiometric,IC50,-,IIIB,<0.05 µM
CC(C)(O)C#Cc1ccc(NC(=O)CSc2nnnn2-c2ccc(C3CC3)cc2Cl)c(Br)c1,PicoGreen / fluorescence,IC50,-,WT,<1 µM
CCN1c2ncc(CCOc3ccc(-c4ccc(C(=O)O)cc4)cc3)cc2C(=O)N(C)c2cccnc21,nucleotide incorporation / radiometric,IC50,-,IIIB,<0.05 µM
CCN1c2ncc(CCOc3ccc(C(=O)O)c4c3CCN(C(=O)OC(C)(C)C)C4)cc2C(=O)N(C)c2cccnc21,nucleotide incorporation / radiometric,IC50,RT-K103N Y181C,-,0.1–1 µM
Cc1ccc(-n2nnnc2SCC(=O)Nc2ccc(-c3ccc(OCC(=O)O)cc3)cc2Cl)c(Cl)c1,PicoGreen / fluorescence,IC50,RT-K103 Y181C,-,<1 µM
COc1ccc2c(c1)CN(c1nn3c(-c4cccs4)nnc3c3ccccc13)CC2,RT activity / fluorescence,IC90,-,IIIB,75.2 µM
CCN1c2ncc(CCOc3ccc(Nc4ccccn4)cc3C)cc2C(=O)N(C)c2cccnc21,nucleotide incorporation / radiometric,IC50,RT-K103N Y181C,IIIB,<0.05 µM
CCN1c2ncc(CCOc3ccc(CC(C)C(=O)O)c4ccccc34)cc2C(=O)N(C)c2ccc(Cl)nc21,nucleotide incorporation / radiometric,IC50,RT-V106A,-,>1 µM
CC(C)(C)c1ccc(-n2nnnc2SCC(=O)Nc2ccc(NC(=O)Cc3ccccc3O)cc2Cl)c(Cl)c1,PicoGreen / fluorescence,IC50,RT-K103 Y181C,-,<1 µM
COc1cc2c(cc1[N+](=O)[O-])CN(c1nn3c(C4CC4)nnc3c3ccccc13)CC2,RT activity / fluorescence,IC50,-,KER2008,26.9 µM
CC(C)(C)c1ccc(-n2nnnc2SCC(=O)Nc2ccc(NC(=O)Nc3ccc(C(=O)O)cc3)cc2Cl)c(Cl)c1,PicoGreen / fluorescence,IC50,RT-K103 Y181C,-,<1 µM
CCN1c2ncc(CCOc3ccc(C(=O)O)c4c3CCN(C(C)=O)C4)cc2C(=O)N(C)c2cccnc21,nucleotide incorporation / radiometric,IC50,RT-V106A,-,>1 µM

For reference, 2 entries again:

Cc1ccc(-n2nnnc2SCC(=O)Nc2ccc(-c3ccc(OCC(=O)O)cc3)cc2Cl)c(Cl)c1 ; method: PicoGreen / fluorescence ; measure: IC50 ; mutations: RT-K103 Y181C ; result: <1 µM
CCN1c2ncc(CCOc3ccc(CCC(=O)O)c4c3CCCC4)cc2C(=O)N(C)c2ccc(Cl)nc21 ; method: nucleotide incorporation / radiometric ; measure: IC50 ; mutations: RT-V106A ; result: >1 µM

ICn: concentration for n% inhibition. Two numbers with a dash give a range or band. Lines come from different laboratories, so protocols vary.